A mixed list of measured activities; the numbers were collected in NIAID ChemDB.

All rows: tests in culture; agent: Hepatitis B virus; read by: ELISA / antigen; read-out: EC50

ECn is the concentration giving n% inhibition of infection, replication or growth. Neighbouring rows are from separate reports. An empty or dashed field is not shown.

structure | cells | setting | value
O=C(/C=C/c1ccc(O)c(O)c1)O[C@@H]1[C@@H](OC(=O)/C=C/c2ccc(O)c(O)c2)C[C@@](O)(C(=O)O)C[C@@H]1O | HepG2.2.15 | - | 71.6 µM
CC1=C(O)C(=O)C=C2C1=CC=C1[C@@]2(C)CC[C@@]2(C)[C@@H]3C[C@](C)(C(=O)OCc4ccc([N+](=O)[O-])cc4)CC[C@]3(C)CC[C@]12C | HepG2 2.2.15 | - | 14.4 µM
COc1cc2oc(=O)ccc2cc1O | HepG2.2.15 | - | 451 µM
O=C(/C=C/c1ccc(O)c(O)c1)O[C@@H]1[C@H](O)C[C@@](O)(C(=O)O)C[C@H]1OC(=O)/C=C/c1ccc(O)c(O)c1 | HepG2.2.15 | - | 71.6 µM
COC(=O)[C@]1(C)CC[C@]2(C)CC[C@]3(C)C4=CCc5c(cc(OC)c(OC)c5C)[C@]4(C)CC[C@@]3(C)[C@@H]2C1 | HepG2 2.2.15 | - | 91 µM
COc1cc2ccc(=O)oc2cc1O | HepG2.2.15 | - | 885 µM
O=C(C=Cc1ccc(O)c(O)c1)O[C@@H]1C[C@](O)(C(=O)O)C[C@@H](O)[C@H]1O | HepG2.2.15 | - | >1380 µM
COc1ccc([C@H]2OC[C@H]3[C@@H]2CO[C@@H]3c2cc(OC)c(O)c(OC)c2)cc1O | HepG2.2.15 | - | 56.11 µM
C[C@@]1(C(=O)O)CC[C@]2(C)CC[C@]3(C)C4=CC(c5c[nH]c6ccccc56)c5cc(O)c(O)cc5[C@]4(C)CC[C@@]3(C)[C@@H]2C1 | HepG2 2.2.15 | - | >100 µM
O=Cc1cc(O)c(O)c(O)c1 | HepG2.2.15 | - | <55.72 µM
CC1=C(O)C(=O)C=C2C1=CC=C1[C@@]2(C)CC[C@@]2(C)[C@@H]3C[C@](C)(C(=O)N4CCOCC4)CC[C@]3(C)CC[C@]12C | HepG2 2.2.15 | - | 15.7 µM
COC(=O)[C@]1(O)C[C@@H](O)[C@@H](O)[C@H](OC(=O)/C=C/c2ccc(O)c(O)c2)C1 | HepG2.2.15 | - | >1680 µM
C[C@H]1[C@H](C)C[C@@H](C(=O)O[C@@H]2O[C@H](CO[C@@H]3O[C@H](CO)[C@@H](O[C@@H]4O[C@H](C)[C@H](O)[C@@H](O)[C@H]4O)[C@H](O)[C@H]3O)[C@@H](O)[C@H](O)[C@H]2O)C2CC[C@]3(C)C(=CC[C@@H]4[C@@]5(C)C[C@@H](O)[C@H](O)[C@@](C)(CO)[C@@H]5CC[C@]43C)[C@H]21 | HepG2.2.15 | 7 d | 56.9 µM
COC(=O)[C@]1(C)CC[C@]2(C)CC[C@]3(C)C4=CC=C5C(=CC(=O)C(O)=C5C)[C@]4(C)CC[C@@]3(C)[C@@H]2C1 | HepG2 2.2.15 | - | 19.4 µM
C=C1CC[C@@H](O)[C@]2(C)CC[C@@H](C(C)C)[C@H](O)[C@@H]12 | HepG2.2.15 | - | 108 µM

The first 2 rows once more:

structure | cells | setting | value
O=C(/C=C/c1ccc(O)c(O)c1)O[C@@H]1[C@@H](OC(=O)/C=C/c2ccc(O)c(O)c2)C[C@@](O)(C(=O)O)C[C@@H]1O | HepG2.2.15 | - | 71.6 µM
CC1=C(O)C(=O)C=C2C1=CC=C1[C@@]2(C)CC[C@@]2(C)[C@@H]3C[C@](C)(C(=O)OCc4ccc([N+](=O)[O-])cc4)CC[C@]3(C)CC[C@]12C | HepG2 2.2.15 | - | 14.4 µM